Reference: paper PMC10766536 (The Journal of Antibiotics, 2023)

The chains behind the UniProt entries cited, without tags or fusion partners.
UniProt P08684, whole entry: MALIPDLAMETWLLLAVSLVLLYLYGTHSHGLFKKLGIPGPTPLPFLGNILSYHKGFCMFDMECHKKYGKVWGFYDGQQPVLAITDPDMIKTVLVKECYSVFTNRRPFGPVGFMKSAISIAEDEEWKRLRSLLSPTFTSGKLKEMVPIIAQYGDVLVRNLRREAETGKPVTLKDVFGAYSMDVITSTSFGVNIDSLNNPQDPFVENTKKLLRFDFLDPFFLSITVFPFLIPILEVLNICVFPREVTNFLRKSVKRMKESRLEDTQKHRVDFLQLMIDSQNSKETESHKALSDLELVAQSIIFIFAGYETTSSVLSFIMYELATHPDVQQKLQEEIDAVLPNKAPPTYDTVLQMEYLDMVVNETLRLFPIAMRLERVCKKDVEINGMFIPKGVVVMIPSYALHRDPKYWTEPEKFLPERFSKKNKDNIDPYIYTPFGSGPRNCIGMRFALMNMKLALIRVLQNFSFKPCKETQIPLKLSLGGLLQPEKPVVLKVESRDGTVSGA
UniProt P05177, whole entry: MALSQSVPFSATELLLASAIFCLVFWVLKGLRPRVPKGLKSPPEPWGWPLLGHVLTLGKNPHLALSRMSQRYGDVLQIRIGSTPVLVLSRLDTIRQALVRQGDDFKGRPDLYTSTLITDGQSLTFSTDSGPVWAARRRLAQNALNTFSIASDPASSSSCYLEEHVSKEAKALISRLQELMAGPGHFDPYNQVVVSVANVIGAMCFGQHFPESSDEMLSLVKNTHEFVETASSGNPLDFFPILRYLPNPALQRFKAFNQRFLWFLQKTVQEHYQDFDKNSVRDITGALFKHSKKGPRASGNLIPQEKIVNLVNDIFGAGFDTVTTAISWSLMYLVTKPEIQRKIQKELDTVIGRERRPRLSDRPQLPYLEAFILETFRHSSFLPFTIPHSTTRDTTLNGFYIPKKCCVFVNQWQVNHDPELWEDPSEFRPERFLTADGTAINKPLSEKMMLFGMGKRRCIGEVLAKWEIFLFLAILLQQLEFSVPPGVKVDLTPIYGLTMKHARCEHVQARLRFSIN
UniProt P11712, whole entry: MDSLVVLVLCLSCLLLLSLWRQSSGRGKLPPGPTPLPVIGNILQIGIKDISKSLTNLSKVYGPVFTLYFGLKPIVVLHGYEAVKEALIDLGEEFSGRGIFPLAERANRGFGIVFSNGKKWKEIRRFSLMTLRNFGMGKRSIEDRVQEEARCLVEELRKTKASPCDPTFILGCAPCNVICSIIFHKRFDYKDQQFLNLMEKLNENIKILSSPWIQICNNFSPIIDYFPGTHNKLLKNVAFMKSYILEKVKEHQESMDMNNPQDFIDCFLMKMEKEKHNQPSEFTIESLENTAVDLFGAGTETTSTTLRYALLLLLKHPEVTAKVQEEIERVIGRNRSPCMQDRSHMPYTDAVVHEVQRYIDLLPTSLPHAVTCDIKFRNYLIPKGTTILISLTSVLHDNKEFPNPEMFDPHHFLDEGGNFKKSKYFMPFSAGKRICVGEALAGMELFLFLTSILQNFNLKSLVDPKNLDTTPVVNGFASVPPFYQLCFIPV
UniProt P10632, whole entry: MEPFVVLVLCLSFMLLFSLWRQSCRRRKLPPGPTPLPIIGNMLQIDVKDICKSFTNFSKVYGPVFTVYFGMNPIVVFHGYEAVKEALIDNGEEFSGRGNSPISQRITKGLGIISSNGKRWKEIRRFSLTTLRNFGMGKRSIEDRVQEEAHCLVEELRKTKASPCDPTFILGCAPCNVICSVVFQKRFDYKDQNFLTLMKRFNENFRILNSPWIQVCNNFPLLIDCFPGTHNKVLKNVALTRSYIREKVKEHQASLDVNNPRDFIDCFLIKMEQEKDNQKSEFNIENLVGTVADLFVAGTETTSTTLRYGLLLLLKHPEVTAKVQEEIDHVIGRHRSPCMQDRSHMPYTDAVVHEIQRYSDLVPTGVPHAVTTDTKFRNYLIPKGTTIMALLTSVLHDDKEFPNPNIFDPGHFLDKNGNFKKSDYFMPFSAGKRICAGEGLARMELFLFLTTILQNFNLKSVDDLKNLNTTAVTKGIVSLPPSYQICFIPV
UniProt P20813, whole entry: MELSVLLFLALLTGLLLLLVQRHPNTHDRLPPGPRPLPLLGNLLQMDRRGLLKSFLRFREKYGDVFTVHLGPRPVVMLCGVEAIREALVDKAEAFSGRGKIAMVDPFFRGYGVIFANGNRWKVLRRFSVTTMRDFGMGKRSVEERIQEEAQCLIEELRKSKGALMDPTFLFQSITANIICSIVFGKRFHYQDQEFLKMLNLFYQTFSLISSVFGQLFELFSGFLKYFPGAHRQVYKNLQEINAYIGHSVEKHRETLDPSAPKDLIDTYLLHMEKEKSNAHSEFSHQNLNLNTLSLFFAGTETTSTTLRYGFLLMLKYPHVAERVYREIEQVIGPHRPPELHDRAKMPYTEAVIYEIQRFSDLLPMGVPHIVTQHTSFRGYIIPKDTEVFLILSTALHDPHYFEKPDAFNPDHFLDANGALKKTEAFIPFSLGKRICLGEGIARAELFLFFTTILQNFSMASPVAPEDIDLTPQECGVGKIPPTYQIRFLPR

How the values were obtained:
[1] = Compound stability in CYP induction assay
CYP 3A4 = CYP 3A4 (Homo sapiens, UniProt P08684)
CYP 1A2 = CYP 1A2 (Homo sapiens, UniProt P05177); settings: read-out: CYP inhibition IC50; CYP 1A2, substrate Phenacetin; ND = Not Detected
CYP 2C9 = CYP 2C9 (Homo sapiens, UniProt P11712)
CYP 2C8 = CYP 2C8 (Homo sapiens, UniProt P10632); assay: CYP inhibition; settings: read-out: CYP inhibition IC50; CYP 2C8, substrate Amodiaquine; ND = Not Detected
[2] = system: Caco-2: endogenous transporters
S. aureus NRS384 [3] = assay: S. aureus intracellular killing assay in THP-1 macrophages; format: cell-based; settings: S. aureus NRS384 in THP-1 macrophages, 2 h, top conc. 1e−6 M
Experimental: (§1) THP-1 monocytic cell line (American Type Culture Collection) was grown in media (RPMI + 10% FBS + 1% Penicillin/Streptomycin), then seeded at a density of 1e5 cells/well in a 96 well plate and differentiated into macrophages for 3 days prior to infection using 200 nM PMA. Overnight culture of S. aureus or S. typhimurium was grown in RPMI or TSB, respectively, washed twice with PBS and resuspended at 1e7 cfu/ml in PBS. THP-1 were washed with warm media (RMPI without FBS) to remove the Penicillin/Streptomycin and then infected with the bacterial suspension at a multiplicity of infection of 10:1 (S. aureus:macrophages) or 5:1 (S. typhimurium:macrophages). Plates were centrifuged at 300 × g for 5 min to synchronize adhesion of the bacteria to the macrophages, then incubated at 37 °C for 2 h for S. aureus infection or 1 h for S. typhimurium infection. Free-floating bacteria were removed by washing twice with warm media and the remaining extracellular bacteria were killed by addition of media containing gentamicin (50 ug/ml). […]

CYP 2B6 = CYP 2B6 (Homo sapiens, UniProt P20813)
S. aureus NRS384 [4] = assay: S. aureus broth killing (growth inhibition) assay; settings: S. aureus NRS384, TSB, 24 h, OD600
Sprague Dawley rats = assay: 2-week IV once-a-day toxicity study with 2-week recovery in Sprague Dawley rats; format: in vivo
[5] = Toxicokinetics in 2-week IV rat toxicity study; format: in vivo
[6] = system: Salmonella typhimurium AR-0031; assay: S. typhimurium intracellular killing assay in THP-1 macrophages; format: cell-based; settings: Salmonella typhimurium AR-0031 in THP-1 macrophages, top conc. 1e−4 M
Experimental: as §1

[7] = system: Salmonella typhimurium ATCC 14028; assay: as above; format: cell-based; settings: Salmonella typhimurium ATCC 14028 in THP-1 macrophages, top conc. 1e−4 M
Experimental: as §1

[8] = system: S. aureus MRSA strain N315; assay: S. aureus IV advanced disseminated infection mouse model, kidney burden; format: in vivo, Balb/c mice
[9] = system: S. aureus MRSA strain NRS384; assay: as above; format: in vivo, Balb/c mice
[10] = system: Salmonella typhimurium AR-0031; assay: S. typhimurium broth killing (growth inhibition) assay; settings: Salmonella typhimurium AR-0031, TSB, 24 h
[11] = system: Salmonella typhimurium ATCC 14028; assay: as above; settings: Salmonella typhimurium ATCC 14028, TSB, 24 h
[12] = males, combination with vancomycin (1 + 110 mg/kg/day), end of treatment, considered vancomycin-related
[13] = males, combination with vancomycin, after 14-day recovery period
[14] = 0.002 mg/kg in combination with vancomycin

CO[C@H]1/C=C/O[C@@]2(C)Oc3c(C)c(O)c4c(=O)c(c5oc6cc(OCCN(C)C)cc(O)c6nc-5c4c3C2=O)NC(=O)/C(C)=C\C=C\[C@H](C)[C@H](O)[C@@H](C)[C@@H](O)[C@@H](C)[C@H](OC(C)=O)[C@@H]1C
Average % Stability [1]: 53.7% | IC50 (CYP 3A4): 2710 nM and 2150 nM | IC50 (CYP 1A2): 2020 nM | IC50 (CYP 2C9): 4650 nM | IC50 (CYP 2C8): 1990 nM | Papp A→B [2]: 1.17 ×10⁻⁶ cm/s | Intracellular MIC (S. aureus NRS384 [3]): 0.04 µM | IC50 (CYP 2B6): 2980 nM | Broth MIC (S. aureus NRS384 [4]): 0.00391 µM | dose with apparent minimal increases in platelet counts in males (Sprague Dawley rats; end of recovery period): ≥ 1 mg/kg/day | dose with persistent increase in reticulocytes and red blood cell distribution width in males (Sprague Dawley rats; end of recovery period): 10 mg/kg/day | dose with minimal increases in reticulocyte counts (Sprague Dawley rats; end of treatment period): 10 mg/kg/day | neutrophils counts (Sprague Dawley rats; [12]): mild decreases | platelet counts (Sprague Dawley rats; [12]): minimal increase | red cell mass parameters (red blood cells, hemoglobin, hematocrit) (Sprague Dawley rats; [12]): minimal decreases | alanine aminotransferase activity (Sprague Dawley rats; [13]): minimal decrease | triglyceride concentrations (Sprague Dawley rats; [13]): mild increase | platelet counts (Sprague Dawley rats; males, combination with vancomycin, end of recovery period): minimal increases | body weight, body weight gains, food consumption changes (Sprague Dawley rats; rat, IV QD 14 days, alone or in combination with vancomycin): no body weight, body weight gains, or food consumption changes | no-observed-adverse-effect level (NOAEL) (Sprague Dawley rats; rat, IV QD 14 days, highest dose administered): 10 mg/kg/day | dose with decrease in globulin/increase in albumin/globulin ratio in males (Sprague Dawley rats; still noted at end of 14-day recovery period): 1 mg/kg/day | accumulation following 14 daily doses ([5]; rat IV QD): No apparent accumulation | sex difference in exposure ([5]; rat IV QD 1 mg/kg/day, males vs females): No sex difference | dose proportionality of Cmax and AUCtau ([5]; rat IV QD 0.1-10 mg/kg/day): greater than dose proportional | AUC or Cmax when coadministered with vancomycin ([5]; rat IV, 1 + 110 mg/kg/day, compound 5: except Day 1, slightly greater Cmax and AUC): not impacted | Intracellular MIC [6]: 30 µM | Intracellular MIC [7]: >100 µM | bacterial load (kidney) [8, 14]: below the limit of detection | S. aureus kidney burden ([8]; 0.002–0.25 mg/kg in combination with vancomycin): to or near the limit of detection | bacterial load (kidney) [9, 14]: below the limit of detection | S. aureus kidney burden ([9]; 0.01 mg/kg (lowest tested dose) in combination with vancomycin): below the limit of detection | bacterial load (kidney) ([9]; 0.05 mg/kg in combination with vancomycin): below the limit of detection | reduction in S. aureus kidney burden ([9]; 0.25 mg/kg monotherapy): ~ 3 logs | S. aureus kidney burden ([9]; 0.01–0.25 mg/kg sc single dose in combination with vancomycin): further reduced kidney burden | Broth MIC [10]: 1 µM | Broth MIC [11]: 4 µM

“And” between values parts separate entries of the source, which are not always exact repeats. Identical values can stand only once.
